Measured data: PubChem BioAssay AID1259414 (Drosophila RNAi Screening Center, 2018)

Purpose: 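Fly genes that alter Wolbachia amount inside host cells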 (primary screen)
Cells: Drosophila JW18 cells infected with Wolbachia
Knock-down reagent: long dsRNA against Drosophila genes, 0.25 µg dsRNA per well of a 384-well plate
Time to read-out: 5 days
Treatment: cells persistently infected with Wolbachia before knock-down; no added drug
Measurement: 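Imaged fluorescence in situ signal for Wolbachia 23S rRNA per DAPI-counted host cell, given as a robust z-score within each plate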
Direction: Wolbachia per cell robust z: higher = more Wolbachia per host cell than the plate typical
Active means: 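Active if absolute robust z reaches 1.5 in two or more of three replicates, leaving out multi- or no-target dsRNAs, genes unexpressed in JW18 and A1 wells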
The deposit covers about 24,000 reagents; this is a random part of those that have a named target and a result. Over the whole deposit, about 1,210 (5%) are marked active. 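Inactive calls also include excluded dsRNAs with several or no targets, genes unexpressed in JW18, and well A1, regardless of score.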 Unmarked entries are inactive. Reagents against one gene are numbered here. Names joined by + are all predicted targets of the reagent.

{"gene knocked down":"asRNA:CR43468 + Lfg","dsRNA no.":1,"Wolbachia per cell robust z, rep 1":0.966,"Wolbachia per cell robust z, rep 2":1.26,"Wolbachia per cell robust z, rep 3":0.66}
{"gene knocked down":"CG5989","dsRNA no.":1,"Wolbachia per cell robust z, rep 1":-1.06,"Wolbachia per cell robust z, rep 2":-3.61,"Wolbachia per cell robust z, rep 3":-0.579}
{"gene knocked down":"ApepP","dsRNA no.":1,"Wolbachia per cell robust z, rep 1":0.107,"Wolbachia per cell robust z, rep 2":0.0447,"Wolbachia per cell robust z, rep 3":0.601}
{"gene knocked down":"CG8043","dsRNA no.":1,"Wolbachia per cell robust z, rep 1":0.276,"Wolbachia per cell robust z, rep 2":0.309,"Wolbachia per cell robust z, rep 3":0.905}
{"gene knocked down":"CG34200","dsRNA no.":1,"Wolbachia per cell robust z, rep 1":0.154,"Wolbachia per cell robust z, rep 2":0.144,"Wolbachia per cell robust z, rep 3":-0.052}
{"gene knocked down":"CG31952","dsRNA no.":1,"Wolbachia per cell robust z, rep 1":-0.48,"Wolbachia per cell robust z, rep 2":-0.15,"Wolbachia per cell robust z, rep 3":0.66}
{"gene knocked down":"CG31952","dsRNA no.":2,"Wolbachia per cell robust z, rep 1":1.05,"Wolbachia per cell robust z, rep 2":0.334,"Wolbachia per cell robust z, rep 3":0.25}
{"gene knocked down":"CG31952","dsRNA no.":3,"Wolbachia per cell robust z, rep 1":0.241,"Wolbachia per cell robust z, rep 2":0.792,"Wolbachia per cell robust z, rep 3":-0.63}
{"gene knocked down":"CG13428","dsRNA no.":1,"Wolbachia per cell robust z, rep 1":1.61,"Wolbachia per cell robust z, rep 2":0.727,"Wolbachia per cell robust z, rep 3":0.616}

3 consecutive entries already listed, for reference:
{"gene knocked down":"CG34200","dsRNA no.":1,"Wolbachia per cell robust z, rep 1":0.154,"Wolbachia per cell robust z, rep 2":0.144,"Wolbachia per cell robust z, rep 3":-0.052}
{"gene knocked down":"CG31952","dsRNA no.":1,"Wolbachia per cell robust z, rep 1":-0.48,"Wolbachia per cell robust z, rep 2":-0.15,"Wolbachia per cell robust z, rep 3":0.66}
{"gene knocked down":"CG31952","dsRNA no.":2,"Wolbachia per cell robust z, rep 1":1.05,"Wolbachia per cell robust z, rep 2":0.334,"Wolbachia per cell robust z, rep 3":0.25}

Further entries follow.
{"gene knocked down":"kl-3","dsRNA no.":1,"Wolbachia per cell robust z, rep 1":-0.902,"Wolbachia per cell robust z, rep 2":0.256,"Wolbachia per cell robust z, rep 3":-7.39}
{"gene knocked down":"kl-3","dsRNA no.":2,"Wolbachia per cell robust z, rep 1":0.642,"Wolbachia per cell robust z, rep 2":0.25,"Wolbachia per cell robust z, rep 3":0.535}
{"gene knocked down":"kl-3","dsRNA no.":3,"Wolbachia per cell robust z, rep 1":0.809,"Wolbachia per cell robust z, rep 2":0.31,"Wolbachia per cell robust z, rep 3":-0.99}
{"gene knocked down":"kl-3","dsRNA no.":4,"Wolbachia per cell robust z, rep 1":-6.01,"Wolbachia per cell robust z, rep 2":0.491,"Wolbachia per cell robust z, rep 3":-0.858}
{"gene knocked down":"kl-3","dsRNA no.":5,"Wolbachia per cell robust z, rep 1":0.125,"Wolbachia per cell robust z, rep 2":0.229,"Wolbachia per cell robust z, rep 3":0.231}
{"gene knocked down":"CG8172","dsRNA no.":1,"Wolbachia per cell robust z, rep 1":0.291,"Wolbachia per cell robust z, rep 2":0.368,"Wolbachia per cell robust z, rep 3":-2.6}
{"gene knocked down":"CG8172","dsRNA no.":2,"Wolbachia per cell robust z, rep 1":-3.27,"Wolbachia per cell robust z, rep 2":-0.953,"Wolbachia per cell robust z, rep 3":-0.463}
{"gene knocked down":"CG8172","dsRNA no.":3,"Wolbachia per cell robust z, rep 1":0.368,"Wolbachia per cell robust z, rep 2":-0.828,"Wolbachia per cell robust z, rep 3":-1.02}
{"gene knocked down":"LS2","dsRNA no.":1,"Wolbachia per cell robust z, rep 1":-1.23,"Wolbachia per cell robust z, rep 2":-0.0828,"Wolbachia per cell robust z, rep 3":-0.562}
{"gene knocked down":"CG31793","dsRNA no.":1,"Wolbachia per cell robust z, rep 1":-0.181,"Wolbachia per cell robust z, rep 2":0.561,"Wolbachia per cell robust z, rep 3":0.00768}
{"gene knocked down":"CG31793","dsRNA no.":2,"Wolbachia per cell robust z, rep 1":0.559,"Wolbachia per cell robust z, rep 2":-0.498,"Wolbachia per cell robust z, rep 3":0.746}
{"gene knocked down":"CG33710","dsRNA no.":1,"Wolbachia per cell robust z, rep 1":-0.174,"Wolbachia per cell robust z, rep 2":-1.23,"Wolbachia per cell robust z, rep 3":-0.553}
{"gene knocked down":"RFeSP","dsRNA no.":1,"Wolbachia per cell robust z, rep 1":0.475,"Wolbachia per cell robust z, rep 2":0.0937,"Wolbachia per cell robust z, rep 3":-1.41}
{"gene knocked down":"RFeSP","dsRNA no.":2,"Wolbachia per cell robust z, rep 1":-0.567,"Wolbachia per cell robust z, rep 2":-0.404,"Wolbachia per cell robust z, rep 3":0.541}
{"gene knocked down":"Ebp","dsRNA no.":1,"Wolbachia per cell robust z, rep 1":-1.56,"Wolbachia per cell robust z, rep 2":-0.119,"Wolbachia per cell robust z, rep 3":-0.266}
{"gene knocked down":"Ebp","dsRNA no.":2,"Wolbachia per cell robust z, rep 1":-0.736,"Wolbachia per cell robust z, rep 2":0.592,"Wolbachia per cell robust z, rep 3":-0.469}
